Data as given in ChEMBL document CHEMBL2169849, “Identification of antischistosomal leads by evaluating bridged 1,2,4,5-tetraoxanes, alphaperoxides, and tricyclic monoperoxides” (J Med Chem, 2012).

Key:
Schistosoma mansoni [1] = assay: Antischistosomal activity against Schistosoma mansoni NTS incubated for 72 hrs; type: functional, organism-based
Summary of the method: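 NTS from mechanically transformed cercariae (Liberian strain), 100 per well in Medium 199 + 5% iFCS, penicillin/streptomycin, preincubated 12–24 h at 37°C, 5% CO2. Exposed to 0.37–90 μg/ml (threefold steps) for 72 h. Scored microscopically on a viability scale (death, motility, morphology). DMSO control; duplicates, at least three experiments; IC50 from viability scores.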

Schistosoma mansoni [2] = assay: Antischistosomal activity against adult Schistosoma mansoni schistosomes incubated for 72 hrs
Schistosoma mansoni [3] = assay: Antischistosomal activity against adult Schistosoma mansoni schistosomes incubated for 72 hrs in presence of 120 uM Fe(3)-hemin

Compound	IC50 (Schistosoma mansoni [1]) [µM]	IC50 (Schistosoma mansoni [2]) [µM]	IC50 (Schistosoma mansoni [3]) [µM]
C[C@]12OO[C@](C)(OO1)C2CCC#N (stereo partly drawn)	15.3		
C[C@]12OO[C@](C)(OO1)C2CC(Br)CBr (stereo partly drawn)	3.4	> 89.8	> 89.8
C[C@]12OO[C@](C)(OO1)C2CCC(=O)O (stereo partly drawn)	58.1		
C[C@]12OO[C@](C)(OO1)C2Cc1ccc([N+](=O)[O-])cc1 (stereo partly drawn)	4.4		
C[C@]12OO[C@](C)(OO1)C2Cc1ccccc1 (stereo partly drawn)	5	41.4	
C[C@]12OO[C@](C)(OO1)C2CC1CO1 (stereo partly drawn)	1.2		91.9
CCCCC1[C@]2(C)OO[C@@]1(C)OO2 (stereo partly drawn)	0.5	37.8	
CCOC(=O)CCC1[C@]2(C)OO[C@@]1(C)OO2 (stereo partly drawn)	9.8		
C=CCC1[C@]2(C)OO[C@@]1(C)OO2 (stereo partly drawn)	3.4	49.8	
CCCCCCC1[C@]2(C)OO[C@@]1(C)OO2 (stereo partly drawn)	0.2	61.5	27.3
